Data as given in PubChem BioAssay AID624099 (ICCB-Longwood, 2012)
Here is a random part of about 21,000 reagents tested. 497 of them (2.4%) were called active. 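Higher z means weaker E2 silencing; only reporter increases were scored, and knock-downs that hurt cell survival may mask genuine repressor factors.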 Unmarked entries are inactive.

Assay: 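Knock-downs relieving repression by E2 of an HPV18 LCR luciferase reporter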 (primary screen)
System: human C33A cervical carcinoma cells (HPV-negative) stably expressing BPV1 E2 and an HPV18 LCR luciferase reporter
Reagents: siRNA pool against human genes, 40 nM
Duration: 72 h
Measured: 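HPV18 LCR reporter light per well, converted to plate-wise z-scores that exclude control wells, and averaged over triplicate plates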
Scale: mean z-score and z-score: higher = stronger reporter signal, weaker E2 silencing
Rule for the call: 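Mean z ≥ 2 together with z ≥ 2 in two or more of the three replicates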

no.	gene	mean z-score	z-score, replicate A	z-score, replicate B	z-score, replicate C
1	PIN1P1	-0.17	-0.36	0	-0.14
2	MAU2	0.46	0.2	0.54	0.62
3	MCTS1	-0.19	-0.13	-0.23	-0.2
4	CRK	0.97	1.23	0.81	0.88
5	C1QB	-0.13	-0.16	-0.11	-0.13
6	ORMDL2	-1.6	-1.29	-1.77	-1.73
7	GMNN	1.47	1.69	1.52	1.21
8	CFAP107	-0.04	-0.23	0.42	-0.31
9	ANK1	0.71	0.51	0.77	0.84
10	LOC400964 (retired record)	2.43 (active)	2.92	2.25	2.11
11	VIPR2	-0.17	-0.09	-0.42	-0.01
12	LILRA3	-1.43	-1.23	-1.52	-1.54
13	CXCR3	-0.34	-0.06	-0.59	-0.39
14	CACNB1	2.58 (active)	2.33	2.87	2.53
15	SHD	0.53	0.48	0.49	0.62
16	KIF2B	-0.62	-0.53	-0.6	-0.74
17	TPST1	1.43	1.55	1.45	1.29
18	MEFV	0.1	0.31	-0.14	0.12
19	PRSS3	1.62	1.72	1.84	1.31
20	AGAP3	-0.2	-0.3	-0.37	0.07
21	PTPN3	-0.32	-0.47	-0.3	-0.2
22	SIRPA	0.82	0.46	0.9	1.11
23	CYTOR	0.43	0.44	0.27	0.59
24	L3MBTL1	-1.55	-1.45	-1.17	-2.02
25	LYPD2	-2.26	-2.21	-2.09	-2.49
26	MSR1	-0.59	-0.67	-0.57	-0.53
27	CNTLN	2.95 (active)	2.31	3.36	3.18
28	LYSET	-1.72	-1.49	-1.8	-1.86
29	ATP6V0C	2.09 (active)	2.14	1.88	2.26
30	SLC25A22	0.66	0.73	0.92	0.34
31	NDUFB11	-2.01	-2	-1.89	-2.14
32	LOC286408 (retired record)	-1.16	-1.28	-1.06	-1.13
33	TLR7	-0.37	-0.34	-0.1	-0.67
34	DGAT2-DT	-0.03	0.2	0.01	-0.29
35	PEX13	0.31	0.53	0.42	-0.03
36	ZNF286A	1.02	1.18	1.34	0.55
37	PSME4	-0.18	-0.11	0	-0.43
38	ANKS4B	0.16	0.18	0.05	0.24
39	LOC151256 (retired record)	-0.35	-0.47	-0.38	-0.19
40	OSCAR	-0.23	-0.11	-0.17	-0.42
41	ZFP14	0.64	0.93	0.81	0.19
42	DOCK3	-0.64	-0.59	-0.7	-0.64
43	LOC400647 (retired record)	0.79	0.95	0.96	0.47
44	CRYM	-1.28	-1.25	-1.54	-1.05
45	IGLON5	0.3	0.28	0.28	0.33
46	INCENP	0.59	0.72	0.58	0.46
47	ABHD14B	-0.27	-0.54	-0.29	0.02
48	FSCN2	0.05	0.25	-0.13	0.04
49	PRSS22	0.57	0.72	0.55	0.43
50	OPRPN	0.29	0.86	0.25	-0.26
51	POGLUT1	1	0.73	1.14	1.12
52	PLEKHA8P1	1.14	1.71	0.71	1.01
53	RTN2	0.32	-0.13	0.63	0.47
54	KRT71	0.03	-0.05	0.44	-0.31
55	LINC00922	1.35	1.11	1.79	1.15
56	FAM117B	-0.29	-0.28	-0.4	-0.2
57	TARBP1	0.39	0.3	0.41	0.45

Hits, among the entries above:
gene	mean z-score	z-score, replicate A	z-score, replicate B	z-score, replicate C
LOC400964 (retired record)	2.43 (active)	2.92	2.25	2.11
CACNB1	2.58 (active)	2.33	2.87	2.53
CNTLN	2.95 (active)	2.31	3.36	3.18
ATP6V0C	2.09 (active)	2.14	1.88	2.26
